A mixed list of measured activities; the numbers were collected in NIAID ChemDB.

Common to all: enzyme or target tests; species: Hepatitis C virus; protein: Nonstructural protein 5B; endpoint: inhibition

Neighbouring rows are from separate reports. Percent inhibition refers to the dose given; in toxicity tests it is the harm to the cells. An empty or dashed field is not shown.

{"compound": "CSc1nc(Nc2ccc(N3CCOCC3)cc2)cc(N2CCN(CC(=O)NC3CCCC3)CC2)n1", "dose": "1 µg/mL", "result": "60%"}
{"compound": "CNC(=O)CN1CCN(c2nc(Nc3ccc4[nH]ncc4c3)nc(OC)n2)CC1", "dose": "1 µg/mL", "result": "20%"}
{"compound": "Cc1cc(C(F)(F)F)nc(N2C(=O)CSC2c2c(Br)cccc2Br)n1", "strain": "NS5B", "dose": "250 µM", "result": "63.6%"}
{"compound": "COc1nc(Nc2ccc3cn[nH]c3c2)nc(N2CCN(CCO)CC2)n1", "dose": "0.1 µg/mL", "result": "37%"}
{"compound": "Nc1ccn([C@@H]2CO[C@H](COP(=O)(O)OP(=O)(O)OP(=O)(O)O)O2)c(=O)n1", "dose": "100 µM", "result": "15%"}
{"compound": "CN(C)CCNc1cc(C(=O)Nc2ccc3[nH]ncc3c2)c(F)cc1F", "dose": "0.1 µg/mL", "result": "46%"}
{"compound": "Nc1ncn([C@@H]2CO[C@H](COP(=O)(O)OP(=O)(O)OP(=O)(O)O)O2)c(=O)n1", "dose": "50 µM", "result": "12%"}
{"compound": "O=C(Nc1ccc2[nH]ncc2c1)c1cc(NCCc2ccccn2)c(F)cc1F", "dose": "1 µg/mL", "result": "32%"}
{"compound": "COc1nc(NCCCN2CCOCC2)nc(Nc2ccc3[nH]ncc3c2)n1", "dose": "10 µg/mL", "result": "45%"}
{"compound": "CSc1nc(Nc2ccc(N3CCOCC3)cc2)cc(N2CCN(CC(=O)N3CCC(C(N)=O)CC3)CC2)n1", "dose": "1 µg/mL", "result": "72%"}
{"compound": "CN(C)C(=O)c1ccc(S(=O)(=O)Nc2ccc(N3CCOCC3)cc2)cc1", "dose": "0.1 µg/mL", "result": "53%"}
{"compound": "Cc1cc(C(F)(F)F)nc(N2C(=O)CSC2c2c(F)cccc2Cl)n1", "strain": "NS5B", "dose": "250 µM", "result": "72.1%"}
{"compound": "Nc1nc(=O)n([C@H]2CO[C@@H](COP(=O)(O)OP(=O)(O)OP(=O)(O)O)O2)cc1F", "dose": "100 µM", "result": "57%"}
{"compound": "O=C(NCc1ccccn1)c1ccc(S(=O)(=O)Nc2ccc(N3CCOCC3)cc2)cc1", "dose": "0.01 µg/mL", "result": "50%"}
{"compound": "O=C(Nc1ccc2[nH]ncc2c1)c1cc(NCCCn2ccnc2)c(F)cc1F", "dose": "10 µg/mL", "result": "68%"}
{"compound": "CCN1CCN(C(=O)CN2CCN(c3cc(Nc4ccc(N5CCOCC5)cc4)nc(SC)n3)CC2)CC1", "dose": "1 µg/mL", "result": "68%"}
{"compound": "O=C1CSC(c2c(Cl)cccc2Cl)N1Cc1cccnc1", "strain": "NS5B", "dose": "250 µM", "result": "84.7%"}
{"compound": "COc1nc(Nc2ccc3[nH]ncc3c2)nc(N2CCN(C)CC2)n1", "dose": "1 µg/mL", "result": "26%"}
{"compound": "CCN(CCO)c1cc(C(=O)Nc2ccc3cn[nH]c3c2)c(F)cc1F", "dose": "0.1 µg/mL", "result": "0%"}
{"compound": "COC(=O)[C@@H]1CCCN1c1nc(Nc2ccc3cn[nH]c3c2)nc(OC)n1", "dose": "0.1 µg/mL", "result": "0%"}
{"compound": "CSc1nc(Nc2ccc(N3CCOCC3)cc2)cc(N2CCN(CC(=O)N3CCC(C)CC3)CC2)n1", "dose": "1 µg/mL", "result": "67%"}
{"compound": "COCCNc1nc(Nc2ccc3[nH]ncc3c2)nc(OC)n1", "dose": "1 µg/mL", "result": "61%"}
{"compound": "NS(=O)(=O)c1ccc(CCNc2cc(C(=O)Nc3ccc4cn[nH]c4c3)c(F)cc2F)cc1", "dose": "10 µg/mL", "result": "70%"}
{"compound": "COc1nc(Nc2ccc3[nH]ncc3c2)nc(NN2CCOCC2)n1", "dose": "1 µg/mL", "result": "33%"}
{"compound": "CN(C)CCN(Cc1ccccc1)C(=O)c1ccc(S(=O)(=O)Nc2ccc(N3CCOCC3)cc2)cc1", "dose": "10 µg/mL", "result": "95%"}
{"compound": "O=C(Nc1ccc2[nH]ncc2c1)c1cc(NCCO)c(F)cc1F", "dose": "10 µg/mL", "result": "23%"}
{"compound": "COc1nc(Nc2ccc3[nH]ncc3c2)nc(N2CCOCC2)n1", "dose": "0.1 µg/mL", "result": "43%"}
{"compound": "O=C(Nc1ccc2cn[nH]c2c1)c1cc(NCCN2CCOCC2)c(F)cc1F", "dose": "0.1 µg/mL", "result": "0%"}
{"compound": "O=C(NCCc1ccncc1)c1ccc(S(=O)(=O)Nc2ccc(N3CCOCC3)cc2)cc1", "dose": "0.01 µg/mL", "result": "12%"}
{"compound": "Cc1cn([C@H]2CO[C@@H](COP(=O)(O)OP(=O)(O)OP(=O)(O)O)O2)c(=O)nc1N", "dose": "50 µM", "result": "9%"}

The last 3 rows once more:

compound | strain | dose | result
O=C(Nc1ccc2cn[nH]c2c1)c1cc(NCCN2CCOCC2)c(F)cc1F | - | 0.1 µg/mL | 0%
O=C(NCCc1ccncc1)c1ccc(S(=O)(=O)Nc2ccc(N3CCOCC3)cc2)cc1 | - | 0.01 µg/mL | 12%
Cc1cn([C@H]2CO[C@@H](COP(=O)(O)OP(=O)(O)OP(=O)(O)O)O2)c(=O)nc1N | - | 50 µM | 9%